Laboratory results as given in publication PMC6768434 (Chembiochem : a European journal of chemical biology, 2019).

Target: didomain MnmC homolog from Vibrio cholerae (Vibrio cholerae, UniProt Q9KQ91)
Format: biochemical
Details: 10 mM CEL, 5 μM MnmC, 4 h, 37 °C

Q: How did the relative activity turn out when `CC(NCCCC[C@H](N)C(=O)O)C(=O)O` (stereo partly shown) [CEL, N^ε-(carboxyethyl)lysine] was run?
A: The relative activity was “their activities indicate that MnmC variants could more broadly catalyze CEL cleavage”.
